# Results taken from US20090325909A1, “Suppression of HIV replication and prevention and treatment of HIV” (The Johns Hopkins University, priority 2003, published 2009).
# System: MCP-1
# Assay: MCP-1 expression in CSF, plasma and brain homogenates by ELISA
# Format: in vivo
# Details: all minocycline-treated macaques
compound,measurement,value
"CN(C)c1ccc(O)c2c1C[C@H]1C[C@H]3[C@H](N(C)C)C(O)=C(C(N)=O)C(=O)[C@@]3(O)C(O)=C1C2=O [Minocycline, [4S-(4a,4aa,5aa,12aa)-4,7-bis(dimethylamino)-1,4,4a,5,5a,6,11,12a-octahydro-3,10,12,12a-tetrahydroxy-1,11-dioxo-2-naphthacenecarboxamide]monohydrochloride]",MCP-1 ratio (CSF versus plasma) at terminal infection,below 2.65

# Counter-ions that a name gives are not always drawn.
